The series relates to intracellular L. donovani in THP-1 macrophage host cells. Briefly: THP-1 macrophage infection assay: anti L. donovani activity. Particulars: L. donovani in THP-1 macrophages.

For `O=C(Cc1nc2ccccc2s1)NNC(=O)c1ccc2ccccc2n1` [Compound 5b], the “reduction in antiparasitic activity compared to compound 1” value was more than 3 fold.
For `O=C(Cc1nc2ccccc2o1)NNC(=O)c1ccc2ccccc2n1` [Compound 5c, N′-(2-(Benzo[d]oxazol-2-yl)acetyl)quinoline-2-carbohydrazide], the “reduction in antiparasitic activity compared to compound 1” value is given as more than 25 fold.
Same read-out and setting: under `Cn1c(CC(=O)NNC(=O)c2ccccn2)nc2ccccc21` [Compound 13b, N′-(2-(1-Methyl-1H-benzo[d]imidazole-2-yl)acetyl)picolinohydrazide] stands approximately 23 fold.
Regarding `Cn1c(CC(=O)NNC(=O)c2cccc(-c3ccccc3)n2)nc2ccccc21` [Compound 13d, N′-(2-(1-Methyl-1H-benzo[d]imidazole-2-yl)acetyl)-6-phenylpicolinohydrazide], the “lower antiparasitic activity than analogue 13e” value was more than 10 fold.
For `Cc1ccc(-c2ccc(C(=O)NNC(=O)Cc3nc4ccccc4n3C)nc2)cc1` [Compound 17k, N′-(2-(1-Methyl-1H-benzo[d]imidazole-2-yl)acetyl)-5-(p-tolyl)picolinohydrazide], the “increased activity against L. donovani compared to 1” value is approximately 10 fold.

The record behind these values is PMC11375810, “Novel Diacyl-hydrazide Compounds as Potential Therapeutics for Visceral Leishmaniasis” (ACS Omega, 2024).
